In patent US20220033460A1, “IDENTIFICATION AND USE OF T CELL EPITOPES IN DESIGNING DIAGNOSTIC AND THERAPEUTIC APPROACHES FOR COVID-19” (priority 2020, published 2022):

These molecules were tested on CD8+ T cells. Settings: cells of the TCR clonotype specific for the epitope / HLA class I of the same line.
Format: cell-based, human

Row | Molecule | No. of Cells
1 | TCR_85: TCR to … / A*02:01 (protein) TCR alpha: TGQNIDQPTEMTATEGAIVQINCTYQTSGFNGLFWYQQHAGEAPTFLSYNVLDGLEEKGRFSSFLSRSKGYSYLLLKELQMKDSASYLCAVRDLGGQKLLFARGTMLKVDLNIQNPDPAVYQLRDSKSSDKSVCLFTDFDSQTNVSQSKDSDVYITDKTVLDMRSMDFKSNSAVAWSNKSDFACANAFNNSIIPEDTFFPSPESSCDVKLVEKSFETDTNLNFQNLSVIGFRILLLKVAGFNLLMTLRLWSS TCR beta: DAGVTQSPTHLIKTRGQQVTLRCSPKSGHDTVSWYQQALGQGPQFIFQYYEEEERQRGNFPDRFSGHQFPNYSSELNVNALLLGDSALYLCASSLGQGSPAGANVLTFGAGSRLTVLEDLKNVFPPKVAVFEPSEAEISHTQKATLVCLATGFYPDHVELSWWVNGKEVHSGVSTDPQPLKEQPALNDSRYCLSSRLRVSATFWQNPRNHFRCQVQFYGLSENDEWTQDRAKPVTQIVSAEAWGRADCGFTSESYQQGVLSATILYEILLGKATLYAVLVSALVLMAMVKRKDSRG | 2
2 | TCR_74: TCR to … / A*02:01 (protein) TCR alpha: RKEVEQDPGPFNVPEGATVAFNCTYSNSASQSFFWYRQDCRKEPKLLMSVYSSGNEDGRFTAQLNRASQYISLLIRDSKLSDSATYLCVVNYDTDKLIFGTGTRLQVFPNIQNPDPAVYQLRDSKSSDKSVCLFTDFDSQTNVSQSKDSDVYITDKTVLDMRSMDFKSNSAVAWSNKSDFACANAFNNSIIPEDTFFPSPESSCDVKLVEKSFETDTNLNFQNLSVIGFRILLLKVAGFNLLMTLRLWSS TCR beta: EPEVTQTPSHQVTQMGQEVILRCVPISNHLYFYWYRQILGQKVEFLVSFYNNEISEKSEIFDDQFSVERPDGSNFTLKIRSTKLEDSAMYFCATGGLNTGELFFGEGSRLTVLEDLKNVFPPKVAVFEPSEAEISHTQKATLVCLATGFYPDHVELSWWVNGKEVHSGVSTDPQPLKEQPALNDSRYCLSSRLRVSATFWQNPRNHFRCQVQFYGLSENDEWTQDRAKPVTQIVSAEAWGRADCGFTSESYQQGVLSATILYEILLGKATLYAVLVSALVLMAMVKRKDSRG | 2
3 | TCR_73: TCR to … / A*24:02 (protein) TCR alpha: KDQVFQPSTVASSEGAVVEIFCNHSVSNAYNFFWYLHFPGCAPRLLVKGSKPSQQGRYNMTYERFSSSLLILQVREADAAVYYCAVEGNYGGSQGNLIFGKGTKLSVKPNIQNPDPAVYQLRDSKSSDKSVCLFTDFDSQTNVSQSKDSDVYITDKTVLDMRSMDFKSNSAVAWSNKSDFACANAFNNSIIPEDTFFPSPESSCDVKLVEKSFETDTNLNFQNLSVIGFRILLLKVAGFNLLMTLRLWSS TCR beta: GITQSPKYLFRKEGQNVTLSCEQNLNHDAMYWYRQDPGQGLRLIYYSQIVNDFQKGDIAEGYSVSREKKESFPLTVTSAQKNPTAFYLCASSINPSSYNEQFFGPGTRLTVLEDLKNVFPPKVAVFEPSEAEISHTQKATLVCLATGFYPDHVELSWWVNGKEVHSGVSTDPQPLKEQPALNDSRYCLSSRLRVSATFWQNPRNHFRCQVQFYGLSENDEWTQDRAKPVTQIVSAEAWGRADCGFTSESYQQGVLSATILYEILLGKATLYAVLVSALVLMAMVKRKDSRG | 2
4 | TCR_81: TCR to … / A*02:01 (protein) TCR alpha: AQKITQTQPGMFVQEKEAVTLDCTYDTSDQSYGLFWYKQPSSGEMIFLIYQGSYDEQNATEGRYSLNFQKARKSANLVISASQLGDSAMYFCAMRDSNSNSGYALNFGKGTSLLVTPHIQNPDPAVYQLRDSKSSDKSVCLFTDFDSQTNVSQSKDSDVYITDKTVLDMRSMDFKSNSAVAWSNKSDFACANAFNNSIIPEDTFFPSPESSCDVKLVEKSFETDTNLNFQNLSVIGFRILLLKVAGFNLLMTLRLWSS TCR beta: DAEITQSPRHKITETGRQVTLACHQTWNHNNMFWYRQDLGHGLRLIHYSYGVQDTNKGEVSDGYSVSRSNTEDLPLTLESAASSQTSVYFCASSDGHQGLQETQYFGPGTRLLVLEDLKNVFPPKVAVFEPSEAEISHTQKATLVCLATGFYPDHVELSWWVNGKEVHSGVSTDPQPLKEQPALNDSRYCLSSRLRVSATFWQNPRNHFRCQVQFYGLSENDEWTQDRAKPVTQIVSAEAWGRADCGFTSESYQQGVLSATILYEILLGKATLYAVLVSALVLMAMVKRKDSRG | 2
5 | TCR_83: TCR to … / A*24:02 (protein) TCR alpha: QQKEKSDQQQVKQSPQSLIVQKGGISIINCAYENTAFDYFPWYQQFPGKGPALLIAIRPDVSEKKEGRFTISFNKSAKQFSLHIMDSQPGDSATYFCAASNRGGSEKLVFGKGTKLTVNPYIQNPDPAVYQLRDSKSSDKSVCLFTDFDSQTNVSQSKDSDVYITDKTVLDMRSMDFKSNSAVAWSNKSDFACANAFNNSIIPEDTFFPSPESSCDVKLVEKSFETDTNLNFQNLSVIGFRILLLKVAGFNLLMTLRLWSS TCR beta: NAGVTQTPKFQVLKTGQSMTLQCAQDMNHEYMSWYRQDPGMGLRLIHYSVGAGITDQGEVPNGYNVSRSTTEDFPLRLLSAAPSQTSVYFCASSYHAGDRGFGYTFGSGTRLTVVEDLNKVFPPEVAVFEPSEAEISHTQKATLVCLATGFFPDHVELSWWVNGKEVHSGVSTDPQPLKEQPALNDSRYCLSSRLRVSATFWQNPRNHFRCQVQFYGLSENDEWTQDRAKPVTQIVSAEAWGRADCGFTSVSYQQGVLSATILYEILLGKATLYAVLVSALVLMAMVKRKDF | 2
6 | TCR_84: TCR to … / A*02:01 (protein) TCR alpha: QTVTQSQPEMSVQEAETVTLSCTYDTSESDYYLFWYKQPPSRQMILVIRQEAYKQQNATENRFSVNFQKAAKSFSLKISDSQLGDAAMYFCAYSGTASKLTFGTGTRLQVTLDIQNPDPAVYQLRDSKSSDKSVCLFTDFDSQTNVSQSKDSDVYITDKTVLDMRSMDFKSNSAVAWSNKSDFACANAFNNSIIPEDTFFPSPESSCDVKLVEKSFETDTNLNFQNLSVIGFRILLLKVAGFNLLMTLRLWSS TCR beta: SAVISQKPSRDICQRGTSLTIQCQVDSQVTMMFWYRQQPGQSLTLIATANQGSEATYESGFVIDKFPISRPNLTFSTLTVSNMSPEDSSIYLCSVVDRGRFYNEQFFGPGTRLTVLEDLKNVFPPKVAVFEPSEAEISHTQKATLVCLATGFYPDHVELSWWVNGKEVHSGVSTDPQPLKEQPALNDSRYCLSSRLRVSATFWQNPRNHFRCQVQFYGLSENDEWTQDRAKPVTQIVSAEAWGRADCGFTSESYQQGVLSATILYEILLGKATLYAVLVSALVLMAMVKRKDSRG | 2
7 | TCR_79: TCR to … / A*02:01 (protein) TCR alpha: QKEVEQNSGPLSVPEGAIASLNCTYSDRVSQSFFWYRQYSGKSPELIMSIYSNGDKEDGRFTAQLNKASQYVSLLIRDSQPSDSATYLCAVNRDDKIIFGKGTRLHILPNIQNPDPAVYQLRDSKSSDKSVCLFTDFDSQTNVSQSKDSDVYITDKTVLDMRSMDFKSNSAVAWSNKSDFACANAFNNSIIPEDTFFPSPESSCDVKLVEKSFETDTNLNFQNLSVIGFRILLLKVAGFNLLMTLRLWSS TCR beta: GVSQDPRHKITKRGQNVTFRCDPISEHNRLYWYRQTLGQGPEFLTYFQNEAQLEKSRLLSDRFSAERPKGSFSTLEIQRTEQGDSAMYLCASSPDIEQFFGPGTRLTVLEDLKNVFPPKVAVFEPSEAEISHTQKATLVCLATGFYPDHVELSWWVNGKEVHSGVSTDPQPLKEQPALNDSRYCLSSRLRVSATFWQNPRNHFRCQVQFYGLSENDEWTQDRAKPVTQIVSAEAWGRADCGFTSESYQQGVLSATILYEILLGKATLYAVLVSALVLMAMVKRKDSRG | 2
